This passage reports activity change, negative = inhibition results from PubChem BioAssay AID720580 (National Center for Advancing Translational Sciences (NCATS), 2013).

Only a part is listed here, and it is no random draw. Records with an inconclusive call do not appear. Some salts and complexes are drawn in separate pieces, as the source files them; their charges need not balance. Calls of active or inactive are those of the source. Calls follow the shape of the full dose curve; tested in A549 cells.
% is scaled to controls: 0 for no effect and ±100 for the full control effect.

The test is described as follows: qHTS for Stage-Specific Inhibitors of Vaccinia Orthopoxvirus: Venus Reporter Primary qHTS. Also: nearly all actives have a fitted effect of over 30% in size. The note with it: Vaccinia virus Venus reporter expression, fluorescence; at 36.5 µM (top of the series). Background: qHTS replaces the single test concentration by a dilution series.
Turning to `CC(C)(C)n1nnnc1C(c1cccc2ccccc12)N1CCC(n2c(=O)[nH]c3ccccc32)CC1` (stereo not drawn), the activity change, negative = inhibition is inactive: -12.9%. To `CN(C)C1(CNC(=O)c2cccc(C#N)c2)CCCCC1` belongs inactive: -6.48%; to `O=C(NCC1(N2CCOCC2)CCCCC1)c1ccccc1`, inactive: 1.33%; to `Cc1cc(N(CCCl)CCCl)ccc1C=O`, inactive: -27.8%. Turning to `O=c1[nH]c2ccccc2n1C1CCN(C(c2ccccc2)c2nnnn2C2CCCC2)CC1` (stereo not drawn), the activity change, negative = inhibition was inactive: 1.88%. To `CCCN1CCC(Nc2cc(OC)cc(OC)c2)CC1` belongs inactive: -5.65%. The value for `c1ccc(CN2CCC(Nc3ccccc3)CC2)cc1` was inactive: -4.72%; that for `O=C(NCC1(N2CCOCC2)CCCCC1)c1ccccc1[N+](=O)[O-]` was inactive: -11.5%; that for `N#Cc1ccc(C(=O)NCC2(N3CCCCC3)CCCCC2)cc1` was inactive: -16.9%.

As to `CC(C)(C)OC(=O)N1CCC(N(C(=O)c2ccccc2)c2ccc(Cl)cc2)CC1`, the activity change, negative = inhibition is inactive: -11.7%.

As for `O=C(NCC1(N2CCOCC2)CCCCC1)c1ccc([N+](=O)[O-])cc1`, the activity change, negative = inhibition was inactive: 15.5%. The value for `O=c1[nH]c2ccccc2n1C1CCN(C(c2cccs2)c2nnnn2C2CCCC2)CC1` (stereo not drawn) was inactive: -12.3%.

As to `CCc1cc(C(=O)NCC2(N3CCCCC3)CCCCC2)sc1C`, the activity change, negative = inhibition is inactive: -0.491%. The value for `O=C(OC1CN2CCC1CC2)C1c2ccccc2C=Cc2ccccc21` (stereo not drawn) was inactive: -14.8%. To `CCCCn1nnnc1C(c1cccc(OC)c1OC)N1CCC(n2c(=O)[nH]c3ccccc32)CC1` (stereo not drawn) belongs inactive: -21.6%; to `CCOC(=O)N1CCC(Nc2ccc(C)cc2)CC1`, inactive: -12%; to `COc1cccc(C(c2nnnn2C(C)(C)C)N2CCC(n3c(=O)[nH]c4ccccc43)CC2)c1OC` (stereo not drawn), inactive: -5.02%. The value for `N/C(=N\O)c1c(N)no[n+]1[O-]` was inactive: 17.9%; that for `O=Cc1ccc(N(CCCl)CCCl)cc1` was inactive: -13.7%.

Consider `O=c1[nH]c2ccccc2n1C1CCN(C(c2cccs2)c2nnnn2C2CCCCC2)CC1` (stereo not drawn), for which the activity change, negative = inhibition is inactive: -7.65%. The value for `O=c1[nH]c2ccccc2n1C1CCN(C(c2ccnc3ccccc23)c2nnnn2C2CCCC2)CC1` (stereo not drawn) was inactive: -12.7%; that for `COc1ccc(C(=O)NCC2(N3CCOCC3)CCCCC2)cc1OC` was inactive: -7.6%. The value for `CCCCn1nnnc1C(c1ccccc1)N1CCC(n2c(=O)[nH]c3ccccc32)CC1` (stereo not drawn) was inactive: 0.887%.

`COc1cccc(C(=O)N(c2cc(C)cc(C)c2)C2CCN(C(=O)OC(C)(C)C)CC2)c1`: the activity change, negative = inhibition was inactive: -8.14%.

Regarding `COc1cc(OC)cc(C(=O)NCC2(N3CCOCC3)CCCCC2)c1`, the activity change, negative = inhibition is inactive: 0.206%. The value for `COc1cccc(C(c2nnnn2C2CCCC2)N2CCC(n3c(=O)[nH]c4ccccc43)CC2)c1OC` (stereo not drawn) was inactive: -19.6%. The value for `COc1cc(C(=O)NCC2(N3CCOCC3)CCCCC2)cc(OC)c1OC` was inactive: 11.3%; that for `CCC(CO)(C(=O)OC1CN2CCC1CC2)c1ccccc1` (stereo not drawn) was inactive: -9.58%; that for `NN(c1ccccc1)C1CCN(CCc2ccccc2)CC1` was inactive: 7.13%. The value for `ClCCN(CCCl)c1ccc(C=C2C=CC=C2)cc1` was inactive: -13.5%; that for `CC(C)(C)OC(=O)N1CCC(Nc2ccccc2)CC1` was inactive: 0.109%. For the molecule `O=c1[nH]c2ccccc2n1C1CCN(C(c2cc3ccccc3o2)c2nnnn2C2CCCC2)CC1` (stereo not drawn), the activity change, negative = inhibition is inactive: -20.3%. To `ClCCN(CCCl)c1ccccc1` belongs inactive: -16.7%. To `CN1CCC(Nc2ccc(F)c(Cl)c2)CC1` belongs inactive: -17.4%; to `CCOc1ncccc1C(=O)NCC1(N2CCOCC2)CCCCC1`, inactive: 0.18%; to `Cc1ccccc1C(=O)NCC1(N(C)C)CCCCC1`, inactive: -6.11%. The value for `CN(C)c1ccc(C(=O)NCC2(N3CCCCC3)CCCCC2)cc1` was inactive: -16.4%; that for `Cn1c(=O)[nH]cc(N(CCCl)CCCl)c1=O` was inactive: -7.41%. With `CC(C)(C)c1ccc(C(=O)NCC2(N3CCOCC3)CCCCC2)cc1`, the activity change, negative = inhibition was inactive: -0.715%. The value for `CCN1CCC(Nc2cccc(F)c2)CC1` was inactive: -11.8%. The value for `COc1ccc(C(c2nnnn2C2CCCCC2)N2CCC(n3c(=O)[nH]c4ccccc43)CC2)cc1` (stereo not drawn) was inactive: -11%; that for `CC(C)(C)n1nnnc1C(c1ccnc2ccccc12)N1CCC(n2c(=O)[nH]c3ccccc32)CC1` (stereo not drawn) was inactive: -9.71%. To `Cc1ccccc1NC1(C#N)CCN(Cc2ccccc2)CC1` belongs inactive: -9.22%.

Take `Fc1ccccc1NC1CCN(Cc2ccccc2)CC1`: the activity change, negative = inhibition is inactive: -16.4%. The value for `Cc1ccc(Nc2c([N+](=O)[O-])cc([N+](=O)[O-])cc2[N+](=O)[O-])cc1` was inactive: -25.8%; that for `Cc1ccc(C(=O)NCC2(N3CCCCC3)CCCCC2)o1` was inactive: -7.26%; that for `Cc1ccc(NC2(C#N)CCN(Cc3ccccc3)CC2)cc1` was inactive: -13.9%. As for `CCC(c1nnnn1C1CCCCC1)N1CCC(n2c(=O)[nH]c3ccccc32)CC1` (stereo not drawn), the activity change, negative = inhibition is inactive: -13.6%. To `CN(C)C1(CNC(=O)c2ccc(C(C)(C)C)cc2)CCCCC1` belongs inactive: -7.78%. To `COc1cccc(C(c2nnnn2C2CCCCC2)N2CCC(n3c(=O)[nH]c4ccccc43)CC2)c1OC` (stereo not drawn) belongs inactive: -27.4%; to `CC(=O)N(c1ccccc1)C1CCNCC1`, inactive: 0%; to `COc1cc(OC)cc(C(=O)NCC2(N3CCCCC3)CCCCC2)c1`, inactive: 7%. To `O=c1[nH]c2ccccc2n1C1CCN(C(c2ccnc3ccccc23)c2nnnn2C2CCCCC2)CC1` (stereo not drawn) belongs inactive: -17.8%. For the molecule `COc1cc(C(=O)NCC2(N(C)C)CCCCC2)ccc1OC(F)F`, the activity change, negative = inhibition is inactive: -20%. To `O=c1[nH]c2ccccc2n1C1CCN(C(c2cccc3ccccc23)c2nnnn2C2CCCC2)CC1` (stereo not drawn) belongs inactive: -21.9%; to `O=c1[nH]c2ccccc2n1C1CCN(C(c2ccccc2)c2nnnn2C2CCCCC2)CC1` (stereo not drawn), inactive: -24.3%; to `COc1ccccc1C(=O)NCC1(N2CCOCC2)CCCCC1`, inactive: -0.341%.

Take `CCCCOc1ccc(C(=O)NCC2(N3CCOCC3)CCCCC2)cc1`: the activity change, negative = inhibition was inactive: -7.9%.

For `CCCCn1nnnc1C(c1cc2ccccc2o1)N1CCC(n2c(=O)[nH]c3ccccc32)CC1` (stereo not drawn), the activity change, negative = inhibition is inactive: -20.9%. To `O=P1(N(CCCl)CCCl)SCCCS1` belongs inactive: -6%; to `O=C(NCC1(N2CCCCC2)CCCCC1)c1ccc(F)cc1`, inactive: -2.33%. The value for `O=C1CCN(Cc2ccccc2)CC1` was inactive: -8.31%; that for `O=C(NCC1(N2CCOCC2)CCCCC1)c1ccc(Cl)cc1` was inactive: 4.66%; that for `CC(C)(C)n1nnnc1C(c1ccccc1)N1CCC(n2c(=O)[nH]c3ccccc32)CC1` (stereo not drawn) was inactive: -1.96%. To `CCOc1ccc(C)cc1CN(CCCl)CCCl` belongs inactive: -9.69%; to `COc1ccc(Cl)cc1C(=O)NCC1(N2CCOCC2)CCCCC1`, inactive: -10.3%.

Turning to `O=C1C(O)=C([N+](=O)[O-])C(=O)C(O)=C1[N+](=O)[O-]`, the activity change, negative = inhibition is inactive: 4.4%.

As to `O=C(NCC1(N2CCCCC2)CCCCC1)c1ccc(Cl)s1`, the activity change, negative = inhibition was inactive: -12.3%. To `O=c1[nH]c2ccccc2n1C1CCN(C(c2cc3ccccc3o2)c2nnnn2C2CCCCC2)CC1` (stereo not drawn) belongs inactive: -14.3%; to `O=C(OC1CN2CCC1CC2)C1c2ccccc2Oc2ccccc21` (stereo not drawn), inactive: -8.92%; to `CCCCn1nnnc1C(c1ccc(OC)cc1)N1CCC(n2c(=O)[nH]c3ccccc32)CC1` (stereo not drawn), inactive: -10.1%. The value for `Cc1cc(C)cc(N(C(=O)c2ccccc2)C2CCN(C(=O)OC(C)(C)C)CC2)c1` was inactive: -19.9%; that for `O=C(NCC1(N2CCCCC2)CCCCC1)c1ccc(Cl)nc1` was inactive: -8.71%; that for `O=c1[nH]c2ccccc2n1C1CCN(C(c2ccccc2OC(F)(F)F)c2nnnn2C2CCCCC2)CC1` (stereo not drawn) was inactive: -18.5%. Regarding `O=C(NCC1(N2CCOCC2)CCCCC1)c1cc2ccccc2o1`, the activity change, negative = inhibition was inactive: -17.8%. The value for `Cc1cccc(NC2(C#N)CCN(Cc3ccccc3)CC2)c1` was inactive: -7.85%; that for `CSc1ccccc1C(=O)NCC1(N2CCCCC2)CCCCC1` was inactive: -2.71%. On to `COc1ccc(C(=O)NCC2(N3CCCCC3)CCCCC2)c(OC)c1OC`, for which the activity change, negative = inhibition was inactive: -17.5%.

In the case of `CCC(c1nnnn1C1CCCC1)N1CCC(n2c(=O)[nH]c3ccccc32)CC1` (stereo not drawn), the activity change, negative = inhibition was inactive: 10.8%. As to `COc1ccc(C(=O)NCC2(N3CCCCC3)CCCCC2)cc1`, the activity change, negative = inhibition is inactive: 2.55%. On to `O=C(NCC1(N2CCCCC2)CCCCC1)c1cccs1`, for which the activity change, negative = inhibition was inactive: -8.55%. To `CCCCn1nnnc1C(CC)N1CCC(n2c(=O)[nH]c3ccccc32)CC1` (stereo not drawn) belongs inactive: -5.25%.

With `CCCCn1nnnc1C(c1cccs1)N1CCC(n2c(=O)[nH]c3ccccc32)CC1` (stereo not drawn), the activity change, negative = inhibition is inactive: -7.33%.

For the molecule `COc1ccc(C(c2nnnn2C2CCCC2)N2CCC(n3c(=O)[nH]c4ccccc43)CC2)cc1` (stereo not drawn), the activity change, negative = inhibition was inactive: -13.7%. For `O=[N+]([O-])c1cc([N+](=O)[O-])c(Nc2ccc(Cl)cc2)c([N+](=O)[O-])c1`, the activity change, negative = inhibition was inactive: -20.2%. Turning to `O=C(NCC1(N2CCOCC2)CCCCC1)c1ccccc1Br`, the activity change, negative = inhibition is inactive: 8.37%. As for `CCCOc1ccc(C(=O)NCC2(N(C)C)CCCCC2)cc1OC`, the activity change, negative = inhibition was inactive: -0.787%.

For `CCCCOc1ccccc1C(=O)NCC1(N2CCOCC2)CCCCC1`, the activity change, negative = inhibition was inactive: -23.7%. The value for `Cc1ccc(C(=O)NCC2(N(C)C)CCCCC2)o1` was inactive: -6.5%; that for `O=C(OC1CN2CCC1CC2)c1ccc([N+](=O)[O-])cc1` (stereo not drawn) was inactive: 19.8%; that for `CN1CCC(Nc2cccc(F)c2)CC1` was inactive: -10.1%. The value for `COc1ccc2c(c1O)-c1c(O)c(OC)cc3c1[C@H](C2)[N+](C)(C)CC3.O=[N+]([O-])c1cc([N+](=O)[O-])c([O-])c([N+](=O)[O-])c1[O-]` was inactive: -8.06%.

With `O=C(NCC1(N2CCCCC2)CCCCC1)c1cncc(Br)c1`, the activity change, negative = inhibition is inactive: -3.47%.
